This test addresses T1, α-toxin (AT), parental construct of the ProteOn study (Staphylococcus aureus (deposit 4U6V: …)).
T1 chain: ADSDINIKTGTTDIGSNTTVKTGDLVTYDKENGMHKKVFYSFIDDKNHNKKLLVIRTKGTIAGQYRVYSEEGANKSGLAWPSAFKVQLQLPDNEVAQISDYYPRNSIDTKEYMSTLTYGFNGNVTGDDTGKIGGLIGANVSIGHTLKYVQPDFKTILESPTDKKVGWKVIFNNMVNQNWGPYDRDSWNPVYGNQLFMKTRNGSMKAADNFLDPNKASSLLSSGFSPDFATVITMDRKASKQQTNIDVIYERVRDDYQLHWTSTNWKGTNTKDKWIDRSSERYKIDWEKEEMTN
In words: SPR. A general note: SPR reads the build-up and loss of mass on a sensor chip optically.

B1: LC10 (antibody, V domains shown)
VH: EVQLVESGGGLVQPGGSLRLSCAASGFTFSSHDMHWVRQATGKGLEWVSGIGTAGDTYYPDSVKGRFTISRENAKNSLYLQMNSLRAGDTAVYYCARDRYSPTGHYYGMDVWGQGTTVTVSS
VL: DIQMTQSPSTLSASVGDRVTITCRASQSISSWLAWYQQKPGKAPKLLIYKASSLESGVPSRFSGSGSGTEFTLTISSLQPDDFATYYCKQYADYWTFGQGTKVEIK
notes: source: generated at MedImmune; copies: 2 + 2
Regarding B1, the Kd (as a rule, the constant that tells how readily two partners part at equilibrium) was determined as 0.01 nM.

(Values after paper PMC4207998 (The Journal of Biological Chemistry, 2014).)
